# Values from PubChem BioAssay AID624099 (ICCB-Longwood, 2012)
# Screen: 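Knock-downs relieving repression by E2 of an HPV18 LCR luciferase reporter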 (primary screen)
# System: human C33A cervical carcinoma cells (HPV-negative) stably expressing BPV1 E2 and an HPV18 LCR luciferase reporter
# Knock-down reagent: siRNA pool against human genes, 40 nM
# Duration: 72 h
# Read-out: 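Per-well luciferase luminescence, z-scored on each plate against the plate mean and SD with control wells left out, then averaged across three replicate plates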
# Reading the numbers: mean z-score and z-score: higher = stronger reporter signal, weaker E2 silencing
# Rule for the call: 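Hit if mean z-score reaches 2 and two or more of three replicate z-scores also reach 2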
# The whole screen tested about 21,000 reagents; this is a random part of them. 497 of all reagents (2.4%) count as active. 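Higher z means weaker E2 silencing; only reporter increases were scored, and knock-downs that hurt cell survival may mask genuine repressor factors.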 A number with no mark means an inactive call. Reagents against one gene are numbered here. No sequences are given here.
gene,reagent no.,mean z-score,"z-score, replicate A","z-score, replicate B","z-score, replicate C"
ISCU (iron-sulfur cluster assembly enzyme),1,-1.4,-1.46,-1.15,-1.59
TTC39B (tetratricopeptide repeat domain 39B),1,-1.48,-1.03,-1.63,-1.77
PDE12 (phosphodiesterase 12),1,0.38,0.45,0.34,0.36
EDNRB (endothelin receptor type B),1,-0.21,-0.08,-0.09,-0.47
TEX11 (testis expressed 11),1,0.88,0.85,0.85,0.94
MBD1 (methyl-CpG binding domain protein 1),1,-0.51,-0.28,-0.41,-0.83
HERC3 (HECT and RLD domain containing E3 ubiquitin protein ligase 3),1,-2.1,-2.15,-2.08,-2.07
"SDR42E1 (short chain dehydrogenase/reductase family 42E, member 1)",1,-0.35,-0.46,-0.33,-0.26
MRPS17 (mitochondrial ribosomal protein S17),1,2.07,2.53,1.96,1.73
"PPM1F (protein phosphatase, Mg2+/Mn2+ dependent 1F)",1,-0.66,-0.53,-0.61,-0.83
CPNE8 (copine 8),1,1.45,1.46,1.72,1.18
ME3 (malic enzyme 3),1,-0.46,-0.23,-0.84,-0.32
GJB5 (gap junction protein beta 5),1,-0.59,-0.65,-0.65,-0.47
PSG8 (pregnancy specific beta-1-glycoprotein 8),1,0.59,0.73,0.73,0.31
FARSA (phenylalanyl-tRNA synthetase subunit alpha),1,0.01,0.14,-0.09,-0.02
OBSCN,1,0.28,0.36,0.15,0.33
OBSCN,2,-0.56,-0.91,-0.6,-0.16
OBSCN,3,-0.12,-0.11,-0.17,-0.09
ROM1 (retinal outer segment membrane protein 1),1,0.3,0.48,0.41,-0.01
TMEM47 (transmembrane protein 47),1,-0.32,-0.33,-0.3,-0.34
DDHD1 (DDHD domain containing 1),1,-0.93,-0.79,-1.09,-0.9
ADAM22 (ADAM metallopeptidase domain 22),1,0.27,0.48,0.11,0.23
GOLGA2P11 (GOLGA2 pseudogene 11),1,-1.05,-1.13,-1.3,-0.71
